Reference: paper PMC9517163 (2022)
Changes are numbered by the printed parent chain.

B1: minke whale ACE2, mFc-tagged (Fc fusion)
chain: QSTTEEQAKTFLQKFDHEAEDLSYRSSLASWNYNTNITDENVQKMNAARAKWSAFYEEQSRIAKTYPLEEIQNLTLKRQLQALQQSGTSVLSADKSKRLNTILNTMSTIYSSGKVLDPNTQEYLVLEPGLDDIMENSEDYNRRLWAWEGWRAEVGKQLRPFYEEYVVLENEMARANNYEDYGDYWRGDYEVTGADGYDYSRNQLIADVERTFAEIKPLYEQLHAYVRAKLMDAYPSRISPTGCLPAHLLGDMWGRFWTNLYPLTVPFGEKPSIDVTKEMQNQSWDAKRIFKEAEKFFVSIGLPNMTQEFWVNSMLTEPGDGRKVVCHPTAWDLGKGDFRIKMCTKVTMDDFLTAHHEMGHIQYDMAYATQPFLLRNGANEGFHEAVGEIMSLSAATPHYLKALGLLPPDFYEDNVTEINFLLKQALQIVGTLPFTYMLEKWRWMVFKGEIPKEQWMQKWWEMKREIVGVVEPLPHDETYCDPACLFHVAEDYSFIRYYTRTIYQFQFHEALCQTAKHEGPLYKCDISNSTEAGQRLLQMLHLGKSEPWTLALENIVGVKTMDVKPLLNYFEPLLTWLKEQNRNSPVGWSTDWTPYSDQSIKVRISLKSALGEKAYEWNDNEMYLFQSSVAYAMREYFSKVRNETIPFGEKDVWVSDLKPRISFNFFVTTPKNVSDIIPRTEVEEAIRMSRGRINDAFRLDDNSLEFLGIQPTLGPPYEPPVT
B2: dolphin ACE2, mFc-tagged (Fc fusion)
chain: QSATEERAKTFLQKFDREAEDLSYQSSLASWNYNTNITDENVQKMNAAGAKWSAFYEEQSRIAKTYPLEEIRNLTLKRQLQVLQQSGTSVLSADKSKRLNAILSTMSTIYSSGKVLDPNTQESLVLEPGLDDIMENSKDYNRRLWAWEGWRAEVGKQLRPLYEEYVVLENEMARANNYEDYGDYWRGDYEVTGAGDYDYSRDQLIRDVERTFAEIKPLYEQLHAYVRAKLMDAYPSRISPTGCLPAHLLGDMWGRFWTNLYPLTVPFGERPSIDVTKEMQNQSWDAKRIFKEAEKFFVSIGLPNMTQGFWDNSMLTEPGDGRKVVCHPTAWDLGKGDFRIKMCTKVTMDDFLTAHHEMGHIQYDMAYATQPYLFRNGANEGFHEAVGEIMSLSAATPHYLKALGLLPPDFYEDSATEINFLLKQALTIVGTLPFTYMLEKWRWMVFKGEIPKEQWMQKWWEMKREIVGVVEPLPHDETYCDPACLFHVAEDYSFIRYYTRTIYQFQFHEALCQTAKHEGPLYKCDISNSTEAGQRLLQMLHLGKSEPWTSALERIVGVKTMDVKPLLNYFEPLLTWLKGQNRNSFVGWRTDWTPYSNQSIKVRISLKSALGEKAYEWNDNEMYLFRSSVAYAMREYFSKVRNKTIPFGEKDVWVSDLKPRISFNFFVTSPKNMSDIIPRTEVEEAIRMSRGRINDAFRLDDSSLEFLGVQPTLAPPYEPPVT
B3: sea lion ACE2, mFc-tagged (Fc fusion)
chain: RSTTEDLVKTFLEKFNSEAEELSYQSSLASWNYNTNITDENVQKMNDAGAKWSAFYEEQSKQAKTYPLEEIQDSTVKRQLQALQHSGSSVLSADKSQRLNTILNAMSTIYSTGKACNPNNPQECLLLEPGLDDIMANSRDYNERLWAWEGWRSEVGKQLRPLYEEYVALKNEMARANNYEDYGDYWRGDYEEEWTNGYNYSRDQLIKDVEQTFTQIQPLYEHLHAYVRAKLMDTYPSHMSPTGCLPAHLLGDMWGRFWTNLYPLTVPFGQKPNIDVTDTMVNQSWDARRIFEEAEKFFVSVGLPNMTQGFWENSMLTEPGDSRKVVCHPTAWDLGKHDFRIKMCTKVTMDDFLTAHHEMGHIQYDMAYAAQPFLLRNGANEGFHEAVGEIMSLSAATPKHLKNIGLLPPGFSEDNETDINFLFKQALTIVGTLPFTYMLEKWRWMVFKGEIPKEQWMKKWWEMKRDLVGVVEPLPHDETYCDPASLFHVANDYSFIRYYTRTIYQFQFQEALCQIAKHEGPLHKCDISNSSEAGQTLLQMLKLGRSKPWTLALYRVVGAKNMDVRPLLNYFDPLFTWLKEQNRNSFVGWNTDWSPYADQSIKVRISLKSALGEKAYEWNDNEMYLFRSSIAYAMREYFSKVKNQMIPFVEDNVWVNNLKPRISFTFFVTSPGNMSDIIPRADVEEAIRMSRGRINDAFRLDDNSLEFLGIQPTLEPPYQPPVT
B4: fur seal ACE2, mFc-tagged (Fc fusion)
chain: B3 chain with L28F, A93V, M239I, N643K, M645T
B5: sperm whale ACE2, mFc-tagged (Fc fusion)
chain: QSTTEEQAKTFLQKFDHEAEDLSYQSSLASWNYNTNITDENVQKMNAARAKWSAFYEEQSRTAKTYPLEEIQNLTLKRQLQALQQSGTSVLSADKSKRLNTILNTMSTIYSSGKVLDPNTQECLVLEPGLDDIMENSEDYSRRLWAWEAWRAEVGKQLRPLYEEYVVLENEMARANNYEDYGDYWRGDYEVTGAGDYDYSRDQLITDVERTFAEIKPLYEQLHAYVRAKLMDAYPSRISPTGCLPAHLLGDMWGRFWTNLYPLTVPFGEKSSIDVTKEMRNQSWDAKRIFKEAEKFFVSIGLPNMTQEFWDNSMLTEPGDGRKVVCHPTAWDLGKGDFRIKMCTKVTMDDFLTARHEMGHIQYDMAYATQPYLLRNGANEGFHEAVGEIMSLSAATPHYLKALGLLPPDFYEDSATEINFLLKQALKIVGTLPFTYMLEKWRWMVFKGEIPKEQWMQKWWEMKREIVGVVEPLPHDETYCDPACLFHVAEDYSFIRYYTRTIYQFQFHEALCQAAKHEGPLYKCDISNSTEAGQRLLQMLHLGKSEPWTSALENIVGVKTMDVKPLLNYFEPLLTWLKDQNRNSFVGWSTDWTPYSDQSIKVRISLKSALGEKAYEWNDNEMYLFRSSVAYAMREYFSKVRNETIPFGEEDVRVGDLKPRISFTFFVTSPKNVSDIIPRTEVEEAIRMSRGRINDAFRLDDNSLEFLGIEPTLGPPYEPPVT

biological target: SARS-CoV receptor-binding domain (RBD) (SARS-CoV, UniProt P59594); assay: SPR

Binder	Kd [nM]
B1	17.7
B2	184
B3	162
B4	2390
B5	76.2
